At least one result comes from cells or an extract, where the contact may be indirect. For some of these results: Protein sequences can lack the tags named with them. For some of these results: The exact form of at least one protein or probe is not confirmed.
How the values were obtained:
Experiment in all cases: EMSA
[1] = biological target: T1, Oct-1 (endogenous, HeLa nuclear extract) (Homo sapiens) (UniProt P14859); settings: HeLa nuclear extract, 30 C, poly d(IC); protein in an extract; label: 32P end
T1 sequence (looked up, limits assumed): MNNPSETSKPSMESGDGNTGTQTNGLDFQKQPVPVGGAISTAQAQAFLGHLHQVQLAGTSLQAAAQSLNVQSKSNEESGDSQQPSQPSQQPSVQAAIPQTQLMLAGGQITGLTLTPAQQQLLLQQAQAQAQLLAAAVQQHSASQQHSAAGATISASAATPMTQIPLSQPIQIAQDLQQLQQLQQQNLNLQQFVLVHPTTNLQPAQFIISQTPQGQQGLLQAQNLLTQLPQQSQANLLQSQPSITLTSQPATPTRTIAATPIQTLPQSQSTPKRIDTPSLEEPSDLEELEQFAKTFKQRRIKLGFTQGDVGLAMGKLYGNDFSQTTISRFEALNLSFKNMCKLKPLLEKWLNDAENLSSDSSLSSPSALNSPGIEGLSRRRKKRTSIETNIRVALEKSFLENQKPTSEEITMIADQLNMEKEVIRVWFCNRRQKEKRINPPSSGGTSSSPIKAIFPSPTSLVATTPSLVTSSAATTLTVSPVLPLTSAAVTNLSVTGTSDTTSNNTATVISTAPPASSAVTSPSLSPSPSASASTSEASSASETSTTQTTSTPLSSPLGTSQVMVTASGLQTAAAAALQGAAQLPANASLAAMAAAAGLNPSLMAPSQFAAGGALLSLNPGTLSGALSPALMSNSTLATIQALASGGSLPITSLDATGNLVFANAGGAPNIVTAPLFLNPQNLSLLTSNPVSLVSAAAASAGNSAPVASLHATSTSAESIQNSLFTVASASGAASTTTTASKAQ

[2] = system: VP16-induced complex: Oct-1 POU domain + GST-VP16 + Spodoptera HCF (Sf9 extract); settings: protein in an extract; protein details: GST on VP16; label: 32P end
[3] = system: VP16-induced complex: Oct-1 POU domain + GST-VP16 + Drosophila HCF (SL2 extract); settings: requires both VP16 and Oct-1 POU; protein in an extract; protein details: GST on VP16; label: 32P end
[4] = system: VP16-induced complex: Oct-1 + GST-VP16 + HCF (HeLa nuclear extract) (Homo sapiens / Herpes simplex virus); settings: slower migrating VP16-induced complex; protein in an extract; protein details: GST on VP16 (VP16 residues 5-411, deltaC); label: 32P end

Measured: binding result

ATGCTAATGATAT (double strand) [(Octa+)TAATGARAT ICP0 IE element]
binds: all assays above
